Test system: MMV007839 resistant 3D7 parasites
Format: cell-based, Plasmodium falciparum

## COc1ccc2c(c1)OC(O)(C(F)(F)C(F)(F)F)CC2=O (stereo not shown) [MMV007839]
  shift in IC50, resistant versus non-resistant parental parasites: 250 fold

Source: publication PMC5298233, “Substrate-analogous inhibitors exert antimalarial action by targeting the Plasmodium lactate transporter PfFNT at nanomolar scale” (PLoS Pathogens, 2017)
